Kdimer by position in the HIV-1 leader RNA

The measurements come from Ye et al. 2022 (doi:10.1038/s41594-022-00746-2).

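Randomly mutated transcripts starting with one, two or three G (1G, 2G, 3G), capped or uncapped, were folded for 30 min at 37 °C. High salt was 300 mM KCl and 5 mM MgCl2, low salt 40 mM KCl and 0.1 mM MgCl2; monomer and dimer were parted on a native gel. Mutation frequencies in the two bands give Kdimer.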

RNA: 5' end of the HIV-1 NL4-3 genome, made in vitro. Positions 1-437 read:
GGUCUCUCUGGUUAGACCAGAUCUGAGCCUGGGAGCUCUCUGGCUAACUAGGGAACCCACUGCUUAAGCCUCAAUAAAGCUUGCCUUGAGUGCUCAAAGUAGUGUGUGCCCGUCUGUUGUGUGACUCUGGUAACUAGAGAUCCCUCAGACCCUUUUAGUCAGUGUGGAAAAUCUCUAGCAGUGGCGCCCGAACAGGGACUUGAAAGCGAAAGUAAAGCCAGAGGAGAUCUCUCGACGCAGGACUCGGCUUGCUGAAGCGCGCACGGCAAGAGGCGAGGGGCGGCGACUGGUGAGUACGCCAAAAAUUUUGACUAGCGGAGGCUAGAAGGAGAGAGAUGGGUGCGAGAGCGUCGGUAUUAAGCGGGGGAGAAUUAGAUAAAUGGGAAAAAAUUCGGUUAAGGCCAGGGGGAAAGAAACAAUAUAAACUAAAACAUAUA

Scale: median log2 Kdimer over the changes at a position; positive = changes inhibit dimerization, negative = changes enhance it.
One numbering serves 1G, 2G and 3G.
A position is written with its base where known.
Bases beyond 437 are not listed in the source.

| position | domain | 1G capped low-salt | 2G uncapped low-salt | 2G uncapped high-salt | 3G uncapped low-salt |
|---|---|---|---|---|---|
| U308 | none | -0.11 | -0.17 | 0.23 | -0.13 |
| G265 | SL1 | 2.75 | 3.25 | 3.21 | 3.38 |
| U113 | none | 0.30 | 0.30 | -0.11 | 0.68 |
| G257 | SL1 | 0.68 | 1.07 | 2.95 | 1.21 |
| G241 | none | -0.60 | -0.53 | -0.03 | -0.62 |
| U309 | none | 0.05 | 0.04 | 0.20 | 0.18 |
| C426 | none | -0.05 | 0.01 | 0.04 | 0.00 |
| G223 | antiPAS | 0.46 | 0.54 | 0.13 | 0.77 |
| G208 | PBS | -0.33 | -0.28 | -0.02 | -0.21 |
| G339 | AUG | 0.56 | 0.58 | 0.13 | 1.01 |
| A314 | SL3 | -0.21 | -0.22 | 0.48 | -0.22 |
| 484 | none | -0.07 | 0.09 | -0.07 | 0.08 |

Excerpt, the final 2 entries:

position,domain,1G capped low-salt,2G uncapped low-salt,2G uncapped high-salt,3G uncapped low-salt
A314,SL3,-0.21,-0.22,0.48,-0.22
484,none,-0.07,0.09,-0.07,0.08